# Primary screen of a compound library

Data taken from ChEMBL document CHEMBL3988442, “University of Dundee, Small-Polar-MMV Screening Library” (2021).

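Whole-cell growth test on Mycobacterium tuberculosis, read after 3 days in glucose-containing 7H9 medium; the read-out is not stated. Tested at 500 µM. The record gives no direction; compounds that gave an IC50 in retests scored well above the rest, so higher reads as more growth inhibition. Size under these conditions: about 18,000 compounds, about 1,400 of them at 50% or above in at least one test.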

Values are the deposited “Percent Effect”, in %.
The controls that fix the scale are not given in the record; negative values are as filed.
Many other results are left out here, so strong results are more common than in the screen.

| structure | percent effect |
|---|---|
| `O=S1(=O)CC[C@H]2CNC[C@H]21` | 0.9147 |
| `NCc1nc(-c2cccc(C(F)(F)F)c2)no1` | 65.7 |
| `CN(C)c1ncc(CNC(=O)C2CCC2)n1C` | 1.812 |
| `CCC(CC)CN(CCC#N)C(=O)c1cccnc1` | 11.1 |
| `COC(=O)c1csc(NC(=O)CCn2cccn2)c1` | 57.84 |
| `Cc1ccc(NS(=O)(=O)c2c(C)nn(C)c2Cl)nc1` | 13.99 |
| `O=C(c1ccccc1F)N1CCNCC1` | -9.94 |
| `CC(C(=O)Nc1ccc2c(c1)CCC2)S(C)(=O)=O` (stereo not given) | 27.27 |
| `CCOc1ncccc1C(=O)Nc1nnc[nH]1` | -9.231 |
| `O=C1CN(CC2CCNC2)CCN1` (stereo not given) | 0.8873 |
| `COC(=O)CN1CCCC(c2ncc[nH]2)C1` (stereo not given) | 4.671 |
| `CCn1ncnc1C(C)NC(=O)c1cccc(O)c1C` (stereo not given) | 8.597 |
| `CCN(CCNS(C)(=O)=O)Cc1cccc2c1OCO2` | 0.3729 |
| `O=C(CNc1cccc2c1CCCC2)N1CCNC1=O` | -15.68 |
| `COC(=O)C(C)S(N)(=O)=O` (stereo not given) | -9.137 |
| `O=C(CN1CCSCC1)NCC1CCCO1` (stereo not given) | 29.8 |
| `NS(=O)(=O)c1ccc(OCC2CCNC2)cc1` (stereo not given) | -0.4765 |
| `O=S(=O)(CCN1CCN(CCO)CC1)C(F)(F)F` | -1.787 |
| `COCC(N)C1CCOCC1` (stereo not given) | 3.955 |
| `O=C(NC1CCNCC1)c1ccc[nH]1` | 1.8 |
| `Cn1cc(C(=O)NC2CCS(=O)(=O)C2)c2ccccc21` (stereo not given) | 9.211 |
| `Cc1ccc2c(c1)nc(CN)n2C` | 66.94 |
| `Cc1cccc(Cl)c1OCCN` | 55.44 |
| `Cc1ncccc1CNc1c(C)c(C)nn1CCO` | 5.678 |
| `CN(CCc1ccccn1)CC(=O)NC1CC1` | 6.204 |
| `Cc1ccc(C(=O)N(C)CCCS(C)(=O)=O)cc1` | -5.26 |
| `CN(Cc1ccco1)C(=O)c1cc(C2CC2)[nH]n1` | 75.42 |
| `O=C(Nc1nccs1)c1csnn1` | 4.084 |
| `NCCn1cc(C(=O)NCCSC2CCCCC2)nn1` | 61.4 |
| `NC1CCCN(c2ccccc2)C1` (stereo not given) | 43.84 |
| `O=C(CCC(=O)Nc1ccccc1)NCCO` | 0.1818 |
| `Cc1ccc(OCC(C)NC(=O)CSCC(N)=O)cc1` (stereo not given) | 27.1 |
| `CNCC1(O)CCCc2ccccc21` (stereo not given) | -12.48 |
| `CSCc1cc(F)ccc1CNC(=O)[C@H]1CCC(=O)N1` | 19.05 |
| `Cc1nc(N)nc(C)c1CC(=O)N[C@H]1C[C@@H]2OCC[C@H]12` | 14.74 |
| `OC1(Cc2ccncc2)CCNCC1` | 6.059 |
| `Cc1cnc(NCc2cccn2C)s1` | -2.998 |
| `COc1cccc(C(=O)NCCC2=CCCN(C)C2)c1` | 1.241 |
| `CC[C@H](C)[C@H](N)C(=O)N(C)C` | 4.451 |
| `CC(C)N(C)C(=O)Nc1ccccc1SCC(N)=O` | -3.201 |
| `CC(C)NC1CCOCC1` | 4.324 |
| `CC(C)(O)CCc1ccc(CN2CCNC(=O)C2)cc1` | 30.07 |
| `N#Cc1cccc(CNc2ccc(OCCO)nc2)c1` | -20.34 |
| `CCn1c(CN2CCCC2)nnc1[C@H]1C[C@H](N)C1` | 15.29 |
| `NC[C@H](O)c1cccc(Cl)c1` | 45.63 |
| `O=C1CCC(O)CN1` (stereo not given) | -10.7 |
| `CNC(=O)c1nc(C(=O)NCc2ccc(C)o2)cs1` | 44.59 |
| `COc1ccc(C(=O)CCN(C)C)cc1OC` | 105 |
| `CC(=O)Nc1ccc(C(=O)NCc2ccncc2)cc1` | 0.08326 |
| `Cc1ccccc1C1(O)CCNC1` (stereo not given) | -13.62 |
| `COc1cc(CNC(=O)NCC(F)(F)F)ccn1` | 26.08 |
| `CCCS(=O)(=O)N1CCC(C(=O)NCCOC)CC1` | -8.042 |
| `NCCOc1cccc(C(F)(F)F)n1` | 34.89 |
| `CN1C(=O)C(N)c2cc(Br)ccc21` (stereo not given) | -2.39 |
| `Cc1cc(C2CC2)nc(N)n1` | -11.44 |
| `Cc1nnc2ccc(C(=O)NCCN3CCCC3)cn12` | -33.09 |
| `CCn1c(SCC(=O)NC)nc2ccccc2c1=O` | -0.3346 |
| `Cc1cnc(C(=O)N(Cc2cnn(C)c2)C2CC2)cn1` | 2.139 |
| `COc1cccc(CN(C)C(=O)c2occc2C)n1` | 64.15 |
| `C[C@@H](C(=O)NCc1cccc(Cl)c1)n1cnnn1` | 18.61 |
| `COC(=O)C1CCN(C(=O)Cc2cccc(F)c2)CC1` | 50 |
| `CCSc1ccccc1NC(=O)NCCNC(C)=O` | 26.65 |
| `CN1CCC(NC(=O)CCCOc2ccccc2)CC1` | -10.4 |
| `NCc1ccc(N2CCNCC2)cc1` | 3.613 |
| `Cc1ccc2[nH]cc(CCN)c2c1` | 35.82 |
| `C=C(C)c1nc(C#N)c(NCc2ccco2)o1` | 84.11 |
| `CN(Cc1ccccc1Br)C(=O)c1nccnc1N` | 52.93 |
| `OCc1cnc2c(F)cccc2c1` | 51.46 |

The first 8 entries again:

* O=S1(=O)CC[C@H]2CNC[C@H]21 | 0.9147%
* NCc1nc(-c2cccc(C(F)(F)F)c2)no1 | 65.7%
* CN(C)c1ncc(CNC(=O)C2CCC2)n1C | 1.812%
* CCC(CC)CN(CCC#N)C(=O)c1cccnc1 | 11.1%
* COC(=O)c1csc(NC(=O)CCn2cccn2)c1 | 57.84%
* Cc1ccc(NS(=O)(=O)c2c(C)nn(C)c2Cl)nc1 | 13.99%
* O=C(c1ccccc1F)N1CCNCC1 | -9.94%
* CC(C(=O)Nc1ccc2c(c1)CCC2)S(C)(=O)=O (stereo not given) | 27.27%